Data as given in PubChem BioAssay AID1986 (Sanford-Burnham Center for Chemical Genomics, 2009).
Only a part is listed here, and it is no random draw. Calls of active or inactive are those of the source. Rule as the data show it: active = inhibition mostly above about 52% (no sharp cut-off); inactive = mostly below about 76%.

Experiment: inhibitors of HIV fusion peptide binding, primary screen, biochemical, uHTS, fluorescence dequenching (AID 1986)
Conditions: HIV Env-mediated cell-cell fusion, fluorescence reporter; at 20 µM; active compounds read high

Row | SMILES | inhibition
1 | COc1ccc(C(=O)NCC2(N3CCCCC3)CCCCC2)c(OC)c1OC | inactive: 0.1%
2 | CC(C)(C)OC(=O)N1CCC(N(C(=O)c2ccccc2)c2ccc(F)cc2)CC1 | inactive: -1.3%
3 | COc1ccc(C(=O)NCC2(N3CCCCC3)CCCCC2)cc1 | inactive: -0.3%
4 | O=C(NCC1(N2CCCCC2)CCCCC1)c1ccc(=O)[nH]c1 | inactive: -1.4%
5 | CSc1ccccc1C(=O)NCC1(N2CCCCC2)CCCCC1 | inactive: -1.4%
6 | Cc1cc(C)cc(N(C(=O)c2ccccc2)C2CCN(C(=O)OC(C)(C)C)CC2)c1 | inactive: 1.4%
7 | O=C(NCC1(N2CCOCC2)CCCCC1)c1cc2ccccc2o1 | inactive: 3.5%
8 | N#CC1(Nc2ccccc2)CCN(Cc2ccccc2)CC1 | inactive: 12.1%
9 | O=C(OC1CN2CCC1CC2)C1c2ccccc2Oc2ccccc21 (centres undefined) | inactive: -1.3%
10 | CCOC(=O)N1CCC(Nc2ccc(OC)cc2)CC1 | inactive: 1.2%
11 | CCOc1ccc(C)cc1CN(CCCl)CCCl | inactive: 1.6%
12 | CCOC(=O)N1CCC(Nc2ccc(F)cc2)CC1 | inactive: -2.2%
13 | COc1ccc(NC2CCN(CCc3ccccc3)CC2)c(OC)c1 | inactive: 1.2%
14 | O=C(NCC1(N2CCCCC2)CCCCC1)c1ccc(F)cc1 | inactive: 2.1%
15 | Cc1ccc(OCC(C)C)c(CN(CCCl)CCCl)c1 | inactive: -0.3%
16 | CCOC(=O)N1CCC(Nc2cccc(C)c2)CC1 | inactive: 0.9%
17 | COc1cc(C(=O)NCC2(N(C)C)CCCCC2)ccc1OC(F)F | inactive: -0.1%
18 | O=C(NCC1(N2CCCCC2)CCCCC1)c1ccc(OC(F)F)cc1 | inactive: -0.8%
19 | N#CC1(Nc2ccccc2)CCN(CCc2ccccc2)CC1 | inactive: -2.3%
20 | CCN1CCC(Nc2ccc(Cl)cc2)CC1 | inactive: 1.9%
21 | O=C(NCC1(N2CCCCC2)CCCCC1)c1cccc([N+](=O)[O-])c1 | inactive: 0.2%
22 | O=C(NCC1(N2CCCCC2)CCCCC1)c1cccc(C(F)(F)F)c1 | inactive: 1.3%
23 | O=C(NCC1(N2CCOCC2)CCCCC1)c1cc(=O)[nH]c2ccccc12 | inactive: -1.3%
24 | COc1cc(C(=O)NCC2(N3CCCCC3)CCCCC2)ccc1OC(F)F | inactive: -0.5%
25 | COc1ccc(NC2CCN(C(=O)OC(C)(C)C)CC2)cc1 | inactive: -3.3%
26 | CN1CCN(CCOC(=O)C(O)(c2ccccc2)c2ccccc2)CC1 | inactive: 4.8%
27 | CC(C)c1ccc(NC2CCN(C(=O)OC(C)(C)C)CC2)cc1 | inactive: -3.4%

Row | SMILES | inhibition
28 | CN(C)c1cccc(C(=O)NCC2(N3CCCCC3)CCCCC2)c1 | inactive: 0.1%
29 | COc1ccc(CN(CCCl)CCCl)cc1Cl | inactive: -1.1%
30 | COc1cc(OC)c(C(=O)NCC2(N(C)C)CCCCC2)cc1OC | inactive: -0.2%
31 | CCCOc1ccc(C(=O)NCC2(N(C)C)CCCCC2)cc1OC | inactive: -0.8%
32 | COc1ccc(C(=O)NCC2(N3CCOCC3)CCCCC2)cc1OC | inactive: 2.8%
33 | CCOC(=O)N1CCC(Nc2ccc(C)cc2)CC1 | inactive: -1%
34 | N/C(=N\O)c1c(N)no[n+]1[O-] | inactive: -1.5%
35 | O=C(OC1CN2CCC1CC2)C1c2ccccc2C=Cc2ccccc21 (centres undefined) | inactive: 2.2%
36 | N#Cc1ccc(C(=O)NCC2(N3CCCCC3)CCCCC2)cc1 | inactive: -0.2%
37 | CC(C)(C)OC(=O)N1CCC(N(C(=O)c2ccccc2)c2ccc(Cl)cc2)CC1 | inactive: 1.9%
38 | CN(C)C1(CNC(=O)c2cccc(C#N)c2)CCCCC1 | inactive: -1.4%
39 | CCCN1CCC(Nc2cc(OC)cc(OC)c2)CC1 | inactive: 2.8%
40 | c1ccc(CN2CCC(Nc3ccccc3)CC2)cc1 | inactive: -3.4%
41 | COc1cc(OC)cc(C(=O)NCC2(N3CCCCC3)CCCCC2)c1 | inactive: -1.9%
42 | Fc1ccccc1NC1CCN(Cc2ccccc2)CC1 | inactive: 16.3%
43 | CCN1CCC(Nc2cccc(F)c2)CC1 | inactive: 2.5%
44 | CN(C)c1ccc(C(=O)NCC2(N3CCCCC3)CCCCC2)cc1 | inactive: 0.4%
45 | CN1CCC(Nc2ccc(F)c(Cl)c2)CC1 | inactive: 0.2%
46 | CCOc1ncccc1C(=O)NCC1(N2CCOCC2)CCCCC1 | inactive: 1.6%
47 | O=C(O)C1(Nc2ccccc2)CCN(Cc2ccccc2)CC1 | inactive: 0.7%
48 | CC(C)(C)OC(=O)N1CCC(Nc2ccccc2)CC1 | inactive: -1.9%
49 | CCCOc1ccc(C(=O)NCC2(N(C)C)CCCCC2)cc1 | inactive: 0.9%
50 | COc1cccc(C(=O)N(c2cc(C)cc(C)c2)C2CCN(C(=O)OC(C)(C)C)CC2)c1 | inactive: -0.1%
51 | COc1cc(OC)cc(C(=O)NCC2(N3CCOCC3)CCCCC2)c1 | inactive: 1.2%
52 | CCC(CO)(C(=O)OC1CN2CCC1CC2)c1ccccc1 (centres undefined) | inactive: -2.8%
53 | CN1CCC(Nc2ccc(Cl)cc2)CC1 | inactive: 1.7%
54 | CCCOc1ccc(C)cc1CN(CCCl)CCCl | inactive: 1%
